Measurements published in ChEMBL document CHEMBL5390309, “Characterization of 2,4-Dianilinopyrimidines Against Five P. falciparum Kinases PfARK1, PfARK3, PfNEK3, PfPK9, and PfPKB” (2023).

Biological target: T1, Glycogen synthase kinase 3 (Plasmodium falciparum (isolate 3D7)) (UniProt O77344)
T1 sequence (whole entry): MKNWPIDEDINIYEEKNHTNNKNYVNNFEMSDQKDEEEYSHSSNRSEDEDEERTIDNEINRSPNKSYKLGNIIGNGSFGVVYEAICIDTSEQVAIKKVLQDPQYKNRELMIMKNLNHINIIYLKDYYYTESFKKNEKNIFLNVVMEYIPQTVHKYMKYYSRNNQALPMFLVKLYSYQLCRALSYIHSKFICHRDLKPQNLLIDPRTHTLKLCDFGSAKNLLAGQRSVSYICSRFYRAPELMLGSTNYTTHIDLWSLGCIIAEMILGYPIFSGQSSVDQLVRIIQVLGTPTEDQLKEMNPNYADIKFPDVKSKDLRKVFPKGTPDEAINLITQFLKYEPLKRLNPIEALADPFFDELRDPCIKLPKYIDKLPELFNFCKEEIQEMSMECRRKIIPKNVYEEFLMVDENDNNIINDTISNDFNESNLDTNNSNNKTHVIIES
Experiment: Inhibition of Plasmodium falciparum GSK3 assessed as remaining activity at 1 uM incubated for 2 hrs by luciferin-reagent based luminometer analysis relative to control

COc1cc(N2CCOCC2)ccc1Nc1ncc(Cl)c(Nc2ccccc2NS(C)(=O)=O)n1
Activity: 94%
